Measured data: PubChem BioAssay AID624099 (ICCB-Longwood, 2012)
The deposit covers about 21,000 reagents; shown is a random part of them. Over the whole deposit, 497 (2.4%) are marked active. 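Higher z means weaker E2 silencing; only reporter increases were scored, and knock-downs that hurt cell survival may mask genuine repressor factors.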

- Test: 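Knock-downs relieving repression by E2 of an HPV18 LCR luciferase reporter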 (primary screen)
- System: human C33A cervical carcinoma cells (HPV-negative) stably expressing BPV1 E2 and an HPV18 LCR luciferase reporter
- Reagent: siRNA pool against human genes, 40 nM
- Duration: 72 h
- Read-out: 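Per-well luciferase luminescence, z-scored on each plate against the plate mean and SD with control wells left out, then averaged across three replicate plates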
- Direction: mean z-score and z-score: higher = stronger reporter signal, weaker E2 silencing
- Call rule: 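Hit if mean z-score reaches 2 and two or more of three replicate z-scores also reach 2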

| target | mean z-score | z-score, replicate A | z-score, replicate B | z-score, replicate C | Outcome |
| --- | --- | --- | --- | --- | --- |
| GSDME (gasdermin E) | 0 | 0.15 | 0.02 | -0.17 | inactive |
| IRF2BP2 (interferon regulatory factor 2 binding protein 2) | 0.12 | -0.06 | 0.03 | 0.38 | inactive |
| STAG3L4 (STAG3 cohesin complex component like 4 (pseudogene)) | -0.08 | -0.33 | 0.23 | -0.14 | inactive |
| ABHD18 (abhydrolase domain containing 18) | 0.55 | 0.54 | 0.72 | 0.38 | inactive |
| AGAP1 (ArfGAP with GTPase domain, ankyrin repeat and PH domain 1) | 0.35 | 0.26 | 0.2 | 0.59 | inactive |
| LFNG (LFNG O-fucosylpeptide 3-beta-N-acetylglucosaminyltransferase) | -0.09 | -0.17 | -0.1 | -0.01 | inactive |
| BAZ1B (bromodomain adjacent to zinc finger domain 1B) | 1.21 | 1.07 | 1.1 | 1.46 | inactive |
| NCMAP (non-compact myelin associated protein) | 0.14 | 0.49 | 0.23 | -0.31 | inactive |
| CDK9 (cyclin dependent kinase 9) | -0.98 | -1.17 | -1.32 | -0.44 | inactive |
| LOC388923 (retired record) | -0.79 | -0.85 | -0.63 | -0.89 | inactive |
| SPG7 (SPG7 matrix AAA peptidase subunit, paraplegin) | 0.2 | 0.31 | 0 | 0.29 | inactive |
| CSPG4P5 (chondroitin sulfate proteoglycan 4 pseudogene 5) | 0.65 | 0.58 | 0.81 | 0.57 | inactive |
| SLC44A5 | -0.61 | -0.99 | -0.78 | -0.07 | inactive |
| MNMIP1 (manchette microtubule inner protein 1) | -0.33 | -0.09 | -0.54 | -0.36 | inactive |
| ZNF709 (zinc finger protein 709) | 1.55 | 1.6 | 1.02 | 2.03 | inactive |
| SPTBN1 (spectrin beta, non-erythrocytic 1) | 0.37 | 0.79 | 0.04 | 0.28 | inactive |
| KRT32 (keratin 32) | 0.61 | 0.29 | 0.79 | 0.76 | inactive |
| DENND2B (DENN domain containing 2B) | 0.28 | -0.48 | 0.31 | 1.01 | inactive |
| ATP6V1A (ATPase H+ transporting V1 subunit A) | -0.21 | 0.04 | -0.3 | -0.39 | inactive |
| ABHD17C (abhydrolase domain containing 17C, depalmitoylase) | -0.19 | 0.08 | 0.26 | -0.93 | inactive |
| GSTCD (glutathione S-transferase C-terminal domain containing) | 0.12 | -0.96 | 1.7 | -0.38 | inactive |
| NAGPA | 0.75 | 0.87 | 0.53 | 0.84 | inactive |
| RNF125 (ring finger protein 125) | 0.56 | 0.45 | 0.59 | 0.65 | inactive |
| UPF2 (UPF2 regulator of nonsense mediated mRNA decay) | 0.36 | 0.47 | 0.46 | 0.14 | inactive |
| CIB2 (calcium and integrin binding family member 2) | -0.22 | 0.07 | -0.21 | -0.53 | inactive |
| SFXN3 (sideroflexin 3) | -1.62 | -1.99 | -1.63 | -1.22 | inactive |
| PHLDB1 (pleckstrin homology like domain family B member 1) | -0.73 | -0.67 | -0.95 | -0.56 | inactive |
| DTX3 (deltex E3 ubiquitin ligase 3) | -0.74 | -0.56 | -0.75 | -0.93 | inactive |
| TJP2 (tight junction protein 2) | 0.11 | 0.41 | -0.03 | -0.06 | inactive |
| MTRF1 (mitochondrial translation release factor 1) | -0.68 | -0.98 | -0.69 | -0.37 | inactive |
| CAVIN3 (caveolae associated protein 3) | -0.38 | -0.66 | 0.1 | -0.58 | inactive |
| OBI1 (ORC ubiquitin ligase 1) | -0.2 | -0.45 | -0.42 | 0.26 | inactive |
| SELENOM (selenoprotein M) | 0.28 | 0.38 | 0.34 | 0.11 | inactive |
| LOC388189 (retired record) | -0.62 | -0.64 | -0.85 | -0.36 | inactive |
| ANKRD50 (ankyrin repeat domain 50) | -0.18 | -0.14 | -0.47 | 0.08 | inactive |
| OCA2 (OCA2 melanosomal transmembrane protein) | 0.51 | 0.43 | 0.42 | 0.69 | inactive |
| SLC22A24 | -0.48 | -0.28 | -0.65 | -0.49 | inactive |
| PCMT1 (protein-L-isoaspartate (D-aspartate) O-methyltransferase) | 0.44 | 0.29 | 0.41 | 0.62 | inactive |
| VSNL1 (visinin like 1) | 1.26 | 1.16 | 1.17 | 1.44 | inactive |
| ZNF629 (zinc finger protein 629) | 0.63 | 0.56 | 0.8 | 0.53 | inactive |
| CHUK | -0.85 | -0.3 | -1.38 | -0.87 | inactive |
| FBXO34 (F-box protein 34) | 0.26 | 0.15 | 0.46 | 0.17 | inactive |
| GPRIN1 (G protein regulated inducer of neurite outgrowth 1) | -0.46 | -0.51 | -0.55 | -0.31 | inactive |
| MTMR9 (myotubularin related protein 9) | 0.35 | 0.18 | 0.6 | 0.27 | inactive |
| GDA (guanine deaminase) | -0.83 | -1.12 | -0.49 | -0.89 | inactive |
| LOC400888 (retired record) | -0.35 | -0.62 | 0.04 | -0.48 | inactive |
| NEURL3 (neuralized E3 ubiquitin protein ligase 3) | -0.6 | -0.56 | -0.29 | -0.93 | inactive |
| LOC387930 (retired record) | -2.33 | -2.07 | -2.54 | -2.36 | inactive |
| ZSCAN20 (zinc finger and SCAN domain containing 20) | 0.02 | 0.1 | 0.14 | -0.18 | inactive |
| COPRS (coordinator of PRMT5 and differentiation stimulator) | 0.95 | 1.07 | 0.82 | – | inactive |
| PCBP2P2 (PCBP2 pseudogene 2) | 0.07 | 0.02 | 0.18 | 0.01 | inactive |
| RPL27 (ribosomal protein L27) | -1.95 | -1.79 | -2.17 | -1.88 | inactive |
| RUNDC3A (RUN domain containing 3A) | 0.38 | 0.52 | 0.14 | 0.49 | inactive |
| PAGE1 (PAGE family member 1) | -1.21 | -1.31 | -1.2 | -1.11 | inactive |
| SGO1 (shugoshin 1) | -1.87 | -1.78 | -1.98 | -1.85 | inactive |
| NNAT (neuronatin) | 0.29 | 0.27 | 0.42 | 0.19 | inactive |
| SCGB1C1 (secretoglobin family 1C member 1) | -1.12 | -1.24 | -1.14 | -0.97 | inactive |
| ST6GALNAC2 (ST6 N-acetylgalactosaminide alpha-2,6-sialyltransferase 2) | 1.51 | 1.46 | 1.65 | 1.43 | inactive |
| PPP1R36 (protein phosphatase 1 regulatory subunit 36) | 0.2 | 0.08 | 0.31 | 0.21 | inactive |
| USP14 (ubiquitin specific peptidase 14) | -0.28 | -0.23 | -0.2 | -0.41 | inactive |
| ATP1A1 (ATPase Na+/K+ transporting subunit alpha 1) | 1.04 | 0.96 | 1.1 | 1.06 | inactive |
| LOC387824 (retired record) | 0.15 | 0.5 | -0.48 | 0.42 | inactive |
| GNG11 (G protein subunit gamma 11) | 3.03 | 2.97 | 3.31 | 2.82 | active |
| HAO1 (hydroxyacid oxidase 1) | -0.09 | 0.05 | -0.06 | -0.27 | inactive |
| FDX1 (ferredoxin 1) | -0.26 | -0.15 | -0.41 | -0.21 | inactive |
| UGT1A7 (UDP glucuronosyltransferase family 1 member A7) | 0.2 | 0.17 | 0.04 | 0.39 | inactive |
| SPRY3 (sprouty RTK signaling antagonist 3) | 0.28 | 0.36 | 0.15 | 0.35 | inactive |
| OR51F2 (olfactory receptor family 51 subfamily F member 2) | -0.07 | 0.11 | 0 | -0.31 | inactive |
| C5orf58 (chromosome 5 open reading frame 58) | -0.34 | -0.48 | -0.29 | -0.26 | inactive |
| MON2 (MON2 regulator of endosome-to-Golgi trafficking) | -0.55 | -0.69 | -0.83 | -0.14 | inactive |
| CNKSR2 (connector enhancer of kinase suppressor of Ras 2) | 0.68 | 0.69 | 0.65 | 0.7 | inactive |
| IQCH (IQ motif containing H) | -0.42 | -0.3 | -0.73 | -0.24 | inactive |
| CRADD (CARD and death domain containing adaptor protein) | -0.19 | -1.12 | 0.28 | 0.28 | inactive |

Look-ups from the list:
Under “Outcome”, DENND2B (DENN domain containing 2B) is entered as inactive
LOC388923 (retired record), mean z-score: -0.79
For “z-score, replicate B”, NEURL3 (neuralized E3 ubiquitin protein ligase 3) is entered as -0.29
HAO1 (hydroxyacid oxidase 1), mean z-score: -0.09
STAG3L4 (STAG3 cohesin complex component like 4 (pseudogene)), mean z-score → -0.08
For “z-score, replicate A”, OBI1 (ORC ubiquitin ligase 1) is entered as -0.45
